# Data as given in patent US20210388031A1 (New Jersey Institute of Technology, published 2021).
# Target: SARS-CoV-2 Spike protein on live virus (SARS-CoV-2, UniProt P0DTC2)
# Experiment: cell-based or functional assay
row,Binder,"Plaque Reduction (10 µM, n-4) [%]"
1,ESLSLSLSLSLSLEGSALEEGQLKTFLDKFMHELEDLLYQLAL [ESBP2],74
2,SALEEQLKTFLDKFMHELEDLLYQLAL [SBP2],88
3,ESLSLSLSLSLSLEGIEEQAKTFLDKFNHEAEDLFYQS [ESBP1],84
